Data from ChEMBL document CHEMBL4364262 (J Med Chem, 2019).

Sequences of proteins named here, by UniProt entry; tags and fusion partners are left off.
UniProt P04757, whole entry, looked up: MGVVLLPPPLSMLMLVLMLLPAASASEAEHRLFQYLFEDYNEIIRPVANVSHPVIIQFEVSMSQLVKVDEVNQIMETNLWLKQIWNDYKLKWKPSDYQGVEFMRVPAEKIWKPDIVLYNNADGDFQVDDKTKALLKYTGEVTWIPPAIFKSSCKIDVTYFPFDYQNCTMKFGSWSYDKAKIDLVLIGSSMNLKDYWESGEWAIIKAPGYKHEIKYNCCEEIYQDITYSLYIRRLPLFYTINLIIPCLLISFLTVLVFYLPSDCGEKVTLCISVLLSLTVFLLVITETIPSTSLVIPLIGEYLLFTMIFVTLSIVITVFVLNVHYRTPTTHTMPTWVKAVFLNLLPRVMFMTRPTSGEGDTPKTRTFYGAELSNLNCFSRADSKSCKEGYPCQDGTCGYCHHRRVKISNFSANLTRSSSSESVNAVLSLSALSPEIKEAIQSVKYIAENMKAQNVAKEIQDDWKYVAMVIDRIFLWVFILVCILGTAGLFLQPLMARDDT
UniProt P12390, whole entry, looked up: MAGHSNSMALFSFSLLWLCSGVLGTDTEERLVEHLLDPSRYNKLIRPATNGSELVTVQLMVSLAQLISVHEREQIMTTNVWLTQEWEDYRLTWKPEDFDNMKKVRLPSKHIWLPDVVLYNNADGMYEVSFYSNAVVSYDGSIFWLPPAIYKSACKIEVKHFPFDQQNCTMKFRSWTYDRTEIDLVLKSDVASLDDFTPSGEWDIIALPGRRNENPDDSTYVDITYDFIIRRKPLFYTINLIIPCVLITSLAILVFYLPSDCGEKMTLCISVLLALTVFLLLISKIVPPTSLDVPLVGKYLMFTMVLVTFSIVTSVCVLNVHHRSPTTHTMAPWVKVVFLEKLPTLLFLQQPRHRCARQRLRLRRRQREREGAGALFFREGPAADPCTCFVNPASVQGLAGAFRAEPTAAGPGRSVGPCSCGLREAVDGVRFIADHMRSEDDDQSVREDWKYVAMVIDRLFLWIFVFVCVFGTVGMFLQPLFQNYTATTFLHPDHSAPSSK

Columns and labels:
Rattus norvegicus = species on record: Rattus norvegicus; experiment: Selectivity ratio of IC50 for rat alpha6/alpha3beta2beta3 nAChR expressed in Xenopus laevis oocytes to IC50 for rat alpha3beta2 nACHR expressed in Xenopus laevis oocytes
[1] = target: Neuronal acetylcholine receptor; alpha3/beta2 (Rattus norvegicus) (UniProt P04757+P12390); experiment: Antagonist activity at rat alpha3beta2 nACHR expressed in Xenopus laevis oocytes assessed as inhibition of Ach-induced response at -70 mV holding potential by two electrode voltage-clamp assay relative to PeIA logIC50

CC(C)C[C@@H]1NC(=O)[C@H](CCC(N)=O)NC(=O)[C@@H]2CCCN2C(=O)[C@H](Cc2cnc[nH]2)NC(=O)[C@H](CC(N)=O)NC(=O)[C@H](C(C)C)NC(=O)[C@H](CO)NC(=O)[C@@H]2CSSC[C@H](NC(=O)CN)C(=O)N[C@@H](CSSC[C@@H](C(N)=O)NC1=O)C(=O)N[C@@H](CO)C(=O)N[C@@H](Cc1cnc[nH]1)C(=O)N1CCC[C@H]1C(=O)N[C@@H](C)C(=O)N2
Ratio IC50 (Rattus norvegicus): 0.2
FC [1]: 0.6

CC(C)C[C@@H]1NC(=O)[C@H](CCC(=O)O)NC(=O)[C@@H]2CCCN2C(=O)[C@H](Cc2cnc[nH]2)NC(=O)[C@H](CCCCCC(=O)O)NC(=O)[C@H](C(C)C)NC(=O)[C@H](CO)NC(=O)[C@@H]2CSSC[C@H](NC(=O)CN)C(=O)N[C@@H](CSSC[C@@H](C(N)=O)NC1=O)C(=O)N[C@@H](CO)C(=O)N[C@@H](Cc1cnc[nH]1)C(=O)N1CCC[C@H]1C(=O)N[C@@H](C)C(=O)N2
Ratio IC50 (Rattus norvegicus): 59
FC [1]: 0.4

CC(C)C[C@@H]1NC(=O)[C@H](CCC(=O)O)NC(=O)[C@@H]2CCCN2C(=O)[C@H](Cc2cnc[nH]2)NC(=O)[C@H](CC(N)=O)NC(=O)[C@H](CC(C)C)NC(=O)[C@H](CO)NC(=O)[C@@H]2CSSC[C@H](NC(=O)CN)C(=O)N[C@@H](CSSC[C@@H](C(N)=O)NC1=O)C(=O)N[C@@H](CO)C(=O)N[C@@H](Cc1cnc[nH]1)C(=O)N1CCC[C@H]1C(=O)N[C@@H](C)C(=O)N2
Ratio IC50 (Rattus norvegicus): 2
FC [1]: -0.3

CC(C)C[C@@H]1NC(=O)[C@H](CCC(=O)O)NC(=O)[C@@H]2CCCN2C(=O)[C@H](Cc2cnc[nH]2)NC(=O)[C@H](CC(=O)O)NC(=O)[C@H](C(C)C)NC(=O)[C@H](CO)NC(=O)[C@@H]2CSSC[C@H](NC(=O)CN)C(=O)N[C@@H](CSSC[C@@H](C(N)=O)NC1=O)C(=O)N[C@@H](CO)C(=O)N[C@@H](Cc1cnc[nH]1)C(=O)N1CCC[C@H]1C(=O)N[C@@H](C)C(=O)N2
Ratio IC50 (Rattus norvegicus): 7
FC [1]: 0.4

CCCC[C@@H]1NC(=O)[C@H](CCC(=O)O)NC(=O)[C@@H]2CCCN2C(=O)[C@H](Cc2cnc[nH]2)NC(=O)[C@H](CC(N)=O)NC(=O)[C@H](C(C)C)NC(=O)[C@H](CO)NC(=O)[C@@H]2CSSC[C@H](NC(=O)CN)C(=O)N[C@@H](CSSC[C@@H](C(N)=O)NC1=O)C(=O)N[C@@H](CO)C(=O)N[C@@H](Cc1cnc[nH]1)C(=O)N1CCC[C@H]1C(=O)N[C@@H](C)C(=O)N2
Ratio IC50 (Rattus norvegicus): 0.6
FC [1]: 0.1

CC(C)C[C@@H]1NC(=O)[C@H](CCC(=O)O)NC(=O)[C@@H]2CCCN2C(=O)[C@H](Cc2cnc[nH]2)NC(=O)[C@H](CC(N)=O)NC(=O)[C@H](C)NC(=O)[C@H](CO)NC(=O)[C@@H]2CSSC[C@H](NC(=O)CN)C(=O)N[C@@H](CSSC[C@@H](C(N)=O)NC1=O)C(=O)N[C@@H](CO)C(=O)N[C@@H](Cc1cnc[nH]1)C(=O)N1CCC[C@H]1C(=O)N[C@@H](C)C(=O)N2
Ratio IC50 (Rattus norvegicus): 1
FC [1]: -0.8

CC(C)C[C@@H]1NC(=O)[C@H](CCC(=O)O)NC(=O)[C@@H]2CCCN2C(=O)[C@H](Cc2cnc[nH]2)NC(=O)[C@H](CC(N)=O)NC(=O)[C@H](C(C)C)NC(=O)[C@H](Cc2ccc(O)cc2)NC(=O)[C@@H]2CSSC[C@H](NC(=O)CN)C(=O)N[C@@H](CSSC[C@@H](C(N)=O)NC1=O)C(=O)N[C@@H](CO)C(=O)N[C@@H](Cc1cnc[nH]1)C(=O)N1CCC[C@H]1C(=O)N[C@@H](C)C(=O)N2
Ratio IC50 (Rattus norvegicus): 1
FC [1]: -0.3

CC(C)[C@@H]1NC(=O)[C@H](CCC(=O)O)NC(=O)[C@@H]2CCCN2C(=O)[C@H](Cc2cnc[nH]2)NC(=O)[C@H](CC(N)=O)NC(=O)[C@H](C(C)C)NC(=O)[C@H](CO)NC(=O)[C@@H]2CSSC[C@H](NC(=O)CN)C(=O)N[C@@H](CSSC[C@@H](C(N)=O)NC1=O)C(=O)N[C@@H](CO)C(=O)N[C@@H](Cc1cnc[nH]1)C(=O)N1CCC[C@H]1C(=O)N[C@@H](C)C(=O)N2
Ratio IC50 (Rattus norvegicus): 0.1
FC [1]: 0.3

CC(C)C[C@@H]1NC(=O)[C@H](CCC(=O)O)NC(=O)[C@@H]2CCCN2C(=O)[C@H](Cc2cnc[nH]2)NC(=O)[C@H](CC(N)=O)NC(=O)[C@H](C(C)C)NC(=O)[C@H](CC(N)=O)NC(=O)[C@@H]2CSSC[C@H](NC(=O)CN)C(=O)N[C@@H](CSSC[C@@H](C(N)=O)NC1=O)C(=O)N[C@@H](CO)C(=O)N[C@@H](Cc1cnc[nH]1)C(=O)N1CCC[C@H]1C(=O)N[C@@H](C)C(=O)N2
Ratio IC50 (Rattus norvegicus): 2
FC [1]: -0.3

CC(C)C[C@@H]1NC(=O)[C@H](CCCNC(=N)N)NC(=O)[C@@H]2CCCN2C(=O)[C@H](Cc2cnc[nH]2)NC(=O)[C@H](CC(N)=O)NC(=O)[C@H](C(C)C)NC(=O)[C@H](CO)NC(=O)[C@@H]2CSSC[C@H](NC(=O)CN)C(=O)N[C@@H](CSSC[C@@H](C(N)=O)NC1=O)C(=O)N[C@@H](CO)C(=O)N[C@@H](Cc1cnc[nH]1)C(=O)N1CCC[C@H]1C(=O)N[C@@H](C)C(=O)N2
Ratio IC50 (Rattus norvegicus): 0.1
FC [1]: 0.7

CC[C@H](C)[C@@H]1NC(=O)[C@H](CO)NC(=O)[C@@H]2CSSC[C@H](NC(=O)CN)C(=O)N[C@@H](CSSC[C@@H](C(N)=O)NC(=O)[C@H](CC(C)C)NC(=O)[C@H](CCC(=O)O)NC(=O)[C@@H]3CCCN3C(=O)[C@H](Cc3cnc[nH]3)NC(=O)[C@H](CC(N)=O)NC1=O)C(=O)N[C@@H](CO)C(=O)N[C@@H](Cc1cnc[nH]1)C(=O)N1CCC[C@H]1C(=O)N[C@@H](C)C(=O)N2
Ratio IC50 (Rattus norvegicus): 1
FC [1]: -0.2

CC(C)C[C@@H]1NC(=O)[C@H](CC(=O)O)NC(=O)[C@@H]2CCCN2C(=O)[C@H](Cc2cnc[nH]2)NC(=O)[C@H](CC(N)=O)NC(=O)[C@H](C(C)C)NC(=O)[C@H](CO)NC(=O)[C@@H]2CSSC[C@H](NC(=O)CN)C(=O)N[C@@H](CSSC[C@@H](C(N)=O)NC1=O)C(=O)N[C@@H](CO)C(=O)N[C@@H](Cc1cnc[nH]1)C(=O)N1CCC[C@H]1C(=O)N[C@@H](C)C(=O)N2
Ratio IC50 (Rattus norvegicus): 0.3
FC [1]: 0.5

CC(C)C[C@@H]1NC(=O)[C@H](CCC(=O)O)NC(=O)[C@@H]2CCCN2C(=O)[C@H](Cc2cnc[nH]2)NC(=O)[C@H](CC(N)=O)NC(=O)[C@H](C(C)C)NC(=O)[C@H]([C@@H](C)O)NC(=O)[C@@H]2CSSC[C@H](NC(=O)CN)C(=O)N[C@@H](CSSC[C@@H](C(N)=O)NC1=O)C(=O)N[C@@H](CO)C(=O)N[C@@H](Cc1cnc[nH]1)C(=O)N1CCC[C@H]1C(=O)N[C@@H](C)C(=O)N2
Ratio IC50 (Rattus norvegicus): 1
FC [1]: -0.4

CC(C)C[C@@H]1NC(=O)[C@H](CCCCCC(=O)O)NC(=O)[C@@H]2CCCN2C(=O)[C@H](Cc2cnc[nH]2)NC(=O)[C@H](CC(N)=O)NC(=O)[C@H](C(C)C)NC(=O)[C@H](CO)NC(=O)[C@@H]2CSSC[C@H](NC(=O)CN)C(=O)N[C@@H](CSSC[C@@H](C(N)=O)NC1=O)C(=O)N[C@@H](CO)C(=O)N[C@@H](Cc1cnc[nH]1)C(=O)N1CCC[C@H]1C(=O)N[C@@H](C)C(=O)N2
Ratio IC50 (Rattus norvegicus): 1
FC [1]: 0.9

CC(C)C[C@@H]1NC(=O)[C@H](CCC(=O)O)NC(=O)[C@@H]2CCCN2C(=O)[C@H](Cc2cnc[nH]2)NC(=O)[C@H](CCCCC(=O)O)NC(=O)[C@H](C(C)C)NC(=O)[C@H](CO)NC(=O)[C@@H]2CSSC[C@H](NC(=O)CN)C(=O)N[C@@H](CSSC[C@@H](C(N)=O)NC1=O)C(=O)N[C@@H](CO)C(=O)N[C@@H](Cc1cnc[nH]1)C(=O)N1CCC[C@H]1C(=O)N[C@@H](C)C(=O)N2
Ratio IC50 (Rattus norvegicus): 300
FC [1]: -0.1

CC(C)C[C@@H]1NC(=O)[C@H](CCCC(=O)O)NC(=O)[C@@H]2CCCN2C(=O)[C@H](Cc2cnc[nH]2)NC(=O)[C@H](CC(N)=O)NC(=O)[C@H](C(C)C)NC(=O)[C@H](CO)NC(=O)[C@@H]2CSSC[C@H](NC(=O)CN)C(=O)N[C@@H](CSSC[C@@H](C(N)=O)NC1=O)C(=O)N[C@@H](CO)C(=O)N[C@@H](Cc1cnc[nH]1)C(=O)N1CCC[C@H]1C(=O)N[C@@H](C)C(=O)N2
Ratio IC50 (Rattus norvegicus): 0.3
FC [1]: 0.8

CC(C)C[C@@H]1NC(=O)[C@H](CC(C(=O)O)C(=O)O)NC(=O)[C@@H]2CCCN2C(=O)[C@H](Cc2cnc[nH]2)NC(=O)[C@H](CC(N)=O)NC(=O)[C@H](C(C)C)NC(=O)[C@H](CO)NC(=O)[C@@H]2CSSC[C@H](NC(=O)CN)C(=O)N[C@@H](CSSC[C@@H](C(N)=O)NC1=O)C(=O)N[C@@H](CO)C(=O)N[C@@H](Cc1cnc[nH]1)C(=O)N1CCC[C@H]1C(=O)N[C@@H](C)C(=O)N2
Ratio IC50 (Rattus norvegicus): 2
FC [1]: -0.1

CC(C)[C@@H]1NC(=O)[C@H](CO)NC(=O)[C@@H]2CSSC[C@H](NC(=O)CN)C(=O)N[C@@H](CSSC[C@@H](C(N)=O)NC(=O)[C@H](C)NC(=O)[C@H](CCC(=O)O)NC(=O)[C@@H]3CCCN3C(=O)[C@H](Cc3cnc[nH]3)NC(=O)[C@H](CC(N)=O)NC1=O)C(=O)N[C@@H](CO)C(=O)N[C@@H](Cc1cnc[nH]1)C(=O)N1CCC[C@H]1C(=O)N[C@@H](C)C(=O)N2
Ratio IC50 (Rattus norvegicus): 0.1
FC [1]: 1.6

CC(C)C[C@@H]1NC(=O)[C@H](CCC(=O)O)NC(=O)[C@@H]2CCCN2C(=O)[C@H](Cc2cnc[nH]2)NC(=O)[C@H](CCC(=O)O)NC(=O)[C@H](C(C)C)NC(=O)[C@H](CO)NC(=O)[C@@H]2CSSC[C@H](NC(=O)CN)C(=O)N[C@@H](CSSC[C@@H](C(N)=O)NC1=O)C(=O)N[C@@H](CO)C(=O)N[C@@H](Cc1cnc[nH]1)C(=O)N1CCC[C@H]1C(=O)N[C@@H](C)C(=O)N2
Ratio IC50 (Rattus norvegicus): 4
FC [1]: 0.2
